In US20110142811A1 one finds Nuclei/syncytium, BxPC-3 (nuclei per syncytium), Nuclei/syncytium, Vero (nuclei per syncytium) and Nuclei/syncytium, Vero-His (nuclei per syncytium) data, which are given here for one substance.

This experiment has as its target CD46. In words: cell-based or functional assay.

“unmodified measles virus hemagglutinin H (from UniProt P08362 1-617)” displayed a Nuclei/syncytium, BxPC-3 (nuclei per syncytium) of 100; a Nuclei/syncytium, Vero (nuclei per syncytium) of over 100; a Nuclei/syncytium, Vero-His (nuclei per syncytium) of over 100.
